Compound potency records, mixed from different reports. Data source: NIAID ChemDB in PubChem.

Common to all: enzyme or target tests; organism: Hepatitis C virus; protein: Nonstructural protein 5B; read-out: inhibition

Inhibition is in % at the dose shown (toxicity tests: loss of growth or viability). Rows are shuffled and stem from different studies.

{"SMILES": "O=C(Nc1ccc2[nH]ncc2c1)c1cc(NCCO)c(F)cc1F", "tested at": "0.1 µg/mL", "value": "0%"}
{"SMILES": "CSc1nc(Nc2ccc(N3CCOCC3)cc2)cc(N2CCN(CC(=O)NCC3CC3)CC2)n1", "tested at": "1 µg/mL", "value": "70%"}
{"SMILES": "O=C(NCCc1ccncc1)c1ccc(S(=O)(=O)Nc2ccc(N3CCOCC3)cc2)cc1", "tested at": "0.01 µg/mL", "value": "12%"}
{"SMILES": "CSc1nc(Nc2ccc(N3CCOCC3)cc2)cc(N2CCN(CC(=O)N3CCN(c4cnccn4)CC3)CC2)n1", "tested at": "1 µg/mL", "value": "67%"}
{"SMILES": "O=C(Nc1ccc2[nH]ncc2c1)c1cc(NCCc2ccccn2)c(F)cc1F", "tested at": "0.1 µg/mL", "value": "0%"}
{"SMILES": "CSc1nc(Nc2ccc(N3CCOCC3)cc2)cc(N2CCN(CC(=O)N3CCCC3)CC2)n1", "tested at": "1 µg/mL", "value": "73%"}
{"SMILES": "O=C1CSC(c2c(Cl)cccc2Cl)N1Cc1cccnc1", "strain": "NS5B", "tested at": "250 µM", "value": "84.7%"}
{"SMILES": "Nc1ccn([C@@H]2CO[C@H](COP(=O)(O)OP(=O)(O)OP(=O)(O)O)O2)c(=O)n1", "tested at": "100 µM", "value": "15%"}
{"SMILES": "CSc1nc(Nc2ccc(N3CCOCC3)cc2)cc(N2CCN(CC(=O)N3CCN(c4ccccc4O)CC3)CC2)n1", "tested at": "1 µg/mL", "value": "60%"}
{"SMILES": "Cc1cccc(N2C(=O)CSC2c2ccc(N(C)C)cc2)n1", "strain": "NS5B", "tested at": "250 µM", "value": "64.2%"}
{"SMILES": "CCOC(=O)C1CCN(c2nc(Nc3ccc4[nH]ncc4c3)nc(OC)n2)CC1", "tested at": "10 µg/mL", "value": "44%"}
{"SMILES": "CC(Cc1ccccn1)Nc1cc(C(=O)Nc2ccc3cn[nH]c3c2)c(F)cc1F", "tested at": "0.1 µg/mL", "value": "0%"}
{"SMILES": "COc1nc(Nc2ccc3cn[nH]c3c2)nc(NC2CC2)n1", "tested at": "0.1 µg/mL", "value": "40%"}
{"SMILES": "CSc1nc(Nc2ccc(N3CCOCC3)cc2)cc(N2CCN(CC(=O)N3CCC(N)CC3)CC2)n1", "tested at": "1 µg/mL", "value": "75%"}
{"SMILES": "Cc1cc(C(F)(F)F)nc(N2C(=O)CSC2c2c(F)cccc2Cl)n1", "strain": "NS5B", "tested at": "250 µM", "value": "72.1%"}
{"SMILES": "COCCNc1nc(Nc2ccc3cn[nH]c3c2)nc(OC)n1", "tested at": "0.1 µg/mL", "value": "24%"}
{"SMILES": "O=C(c1ccc(S(=O)(=O)Nc2ccc(N3CCOCC3)cc2)cc1)N(Cc1ccccn1)Cc1ccccn1", "tested at": "10 µg/mL", "value": "90%"}
{"SMILES": "Nc1nc2c(ncn2[C@@H]2CO[C@H](COP(=O)(O)OP(=O)(O)OP(=O)(O)O)O2)c(=O)[nH]1", "tested at": "50 µM", "value": "6%"}
{"SMILES": "Cc1cc(C(F)(F)F)nc(N2C(=O)CSC2c2c(Br)cccc2Br)n1", "strain": "NS5B", "tested at": "250 µM", "value": "63.6%"}
{"SMILES": "Cc1cn([C@H]2CO[C@@H](COP(=O)(O)OP(=O)(O)OP(=O)(O)O)O2)c(=O)nc1N", "tested at": "50 µM", "value": "9%"}
{"SMILES": "CN(C)CCNc1cc(C(=O)Nc2ccc3[nH]ncc3c2)c(F)cc1F", "tested at": "10 µg/mL", "value": "82%"}
{"SMILES": "O=C(NCCc1cccnc1)c1ccc(S(=O)(=O)Nc2ccc(N3CCOCC3)cc2)cc1", "tested at": "0.1 µg/mL", "value": "47%"}
{"SMILES": "CCN(CC)CCN(C)C(=O)CN1CCN(c2cc(Nc3ccc(N4CCOCC4)cc3)nc(SC)n2)CC1", "tested at": "1 µg/mL", "value": "74%"}
{"SMILES": "COc1nc(NCCc2c[nH]c3ccccc23)nc(Nc2ccc3[nH]ncc3c2)n1", "tested at": "10 µg/mL", "value": "33%"}
{"SMILES": "CCN(CCO)c1cc(C(=O)Nc2ccc3cn[nH]c3c2)c(F)cc1F", "tested at": "1 µg/mL", "value": "26%"}
{"SMILES": "CSc1nc(Nc2ccc(N3CCOCC3)cc2)cc(N2CCN(CC(=O)N(C)CCN(C)C)CC2)n1", "tested at": "1 µg/mL", "value": "70%"}
{"SMILES": "Nc1nc(N)c2ncn([C@@H]3CO[C@H](COP(=O)(O)OP(=O)(O)OP(=O)(O)O)O3)c2n1", "tested at": "50 µM", "value": "82%"}

2 of the rows above, restated:

COCCNc1nc(Nc2ccc3cn[nH]c3c2)nc(OC)n1 ; tested at: 0.1 µg/mL ; value: 24%
CCN(CC)CCN(C)C(=O)CN1CCN(c2cc(Nc3ccc(N4CCOCC4)cc3)nc(SC)n2)CC1 ; tested at: 1 µg/mL ; value: 74%